The text below walks through data of publication PMC4663627.

For data set [1], the target named is T1, p19 (GST-p19) (Cymbidium ringspot virus (CymRSV)) (UniProt P17457).
T1 sequence (looked up, limits assumed): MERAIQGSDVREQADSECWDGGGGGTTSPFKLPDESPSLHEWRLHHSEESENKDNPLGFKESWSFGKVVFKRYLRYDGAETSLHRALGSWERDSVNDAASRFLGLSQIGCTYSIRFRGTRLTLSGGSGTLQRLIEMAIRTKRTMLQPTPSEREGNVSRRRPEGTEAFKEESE
In words: SiNW-FET conductance. The note with it: phosphate solution (240 uM NaH2PO4, 760 uM Na2HPO4), pH 7.4, Debye length 6.1 nm, temperature not given, recombinant protein, protein details: GST (pGEX-4T-1), N-terminal.

The target of data set [2] is T1, p19 (GST-p19) (Cymbidium ringspot virus (CymRSV)). Kind of data set: fluorescence imaging on protein micropatterns. The note with it: phosphate solution (240 uM NaH2PO4, 760 uM Na2HPO4), pH 7.4, Debye length 6.1 nm; temperature not given; recombinant protein; protein details: GST (pGEX-4T-1), N-terminal; label: 5'-FITC (Fig. S4, Methods state Cy5).

Construct, isoform or probe ends are uncertain for at least one entry. For part of these data: No signal at the amounts used counts as a negative. Tags and fusion partners may be left off the protein sequences shown.

Regarding “CGTACGCGGAATACTTCGATT / TCGAAGTATTCCGCGTACGTT [ds-sDNA-0]”, the binding result in data set [1] (1 uM DNA) is recorded as “no binding”.
With “CGUACGCGGAAUACUUCGAUU / UCGAAGUAUUCCGCGUACGUU [FITC-ds-sRNA (21-nt)]”, the binding result in data set [2] is on record as “binds”.
For the sequence CGUACGCGGAAUACUUCGAUU [ss-sRNA-0], the binding result in data set [1] (1 uM RNA, 5'-phosphate) is given as “no binding”.
